Results on one molecule are retold here after article PMC7599555 (Biomedicines, 2020).

Sequences of proteins named here, by UniProt entry; tags and fusion partners are left off.
UniProt Q9UQD0, whole entry, looked up: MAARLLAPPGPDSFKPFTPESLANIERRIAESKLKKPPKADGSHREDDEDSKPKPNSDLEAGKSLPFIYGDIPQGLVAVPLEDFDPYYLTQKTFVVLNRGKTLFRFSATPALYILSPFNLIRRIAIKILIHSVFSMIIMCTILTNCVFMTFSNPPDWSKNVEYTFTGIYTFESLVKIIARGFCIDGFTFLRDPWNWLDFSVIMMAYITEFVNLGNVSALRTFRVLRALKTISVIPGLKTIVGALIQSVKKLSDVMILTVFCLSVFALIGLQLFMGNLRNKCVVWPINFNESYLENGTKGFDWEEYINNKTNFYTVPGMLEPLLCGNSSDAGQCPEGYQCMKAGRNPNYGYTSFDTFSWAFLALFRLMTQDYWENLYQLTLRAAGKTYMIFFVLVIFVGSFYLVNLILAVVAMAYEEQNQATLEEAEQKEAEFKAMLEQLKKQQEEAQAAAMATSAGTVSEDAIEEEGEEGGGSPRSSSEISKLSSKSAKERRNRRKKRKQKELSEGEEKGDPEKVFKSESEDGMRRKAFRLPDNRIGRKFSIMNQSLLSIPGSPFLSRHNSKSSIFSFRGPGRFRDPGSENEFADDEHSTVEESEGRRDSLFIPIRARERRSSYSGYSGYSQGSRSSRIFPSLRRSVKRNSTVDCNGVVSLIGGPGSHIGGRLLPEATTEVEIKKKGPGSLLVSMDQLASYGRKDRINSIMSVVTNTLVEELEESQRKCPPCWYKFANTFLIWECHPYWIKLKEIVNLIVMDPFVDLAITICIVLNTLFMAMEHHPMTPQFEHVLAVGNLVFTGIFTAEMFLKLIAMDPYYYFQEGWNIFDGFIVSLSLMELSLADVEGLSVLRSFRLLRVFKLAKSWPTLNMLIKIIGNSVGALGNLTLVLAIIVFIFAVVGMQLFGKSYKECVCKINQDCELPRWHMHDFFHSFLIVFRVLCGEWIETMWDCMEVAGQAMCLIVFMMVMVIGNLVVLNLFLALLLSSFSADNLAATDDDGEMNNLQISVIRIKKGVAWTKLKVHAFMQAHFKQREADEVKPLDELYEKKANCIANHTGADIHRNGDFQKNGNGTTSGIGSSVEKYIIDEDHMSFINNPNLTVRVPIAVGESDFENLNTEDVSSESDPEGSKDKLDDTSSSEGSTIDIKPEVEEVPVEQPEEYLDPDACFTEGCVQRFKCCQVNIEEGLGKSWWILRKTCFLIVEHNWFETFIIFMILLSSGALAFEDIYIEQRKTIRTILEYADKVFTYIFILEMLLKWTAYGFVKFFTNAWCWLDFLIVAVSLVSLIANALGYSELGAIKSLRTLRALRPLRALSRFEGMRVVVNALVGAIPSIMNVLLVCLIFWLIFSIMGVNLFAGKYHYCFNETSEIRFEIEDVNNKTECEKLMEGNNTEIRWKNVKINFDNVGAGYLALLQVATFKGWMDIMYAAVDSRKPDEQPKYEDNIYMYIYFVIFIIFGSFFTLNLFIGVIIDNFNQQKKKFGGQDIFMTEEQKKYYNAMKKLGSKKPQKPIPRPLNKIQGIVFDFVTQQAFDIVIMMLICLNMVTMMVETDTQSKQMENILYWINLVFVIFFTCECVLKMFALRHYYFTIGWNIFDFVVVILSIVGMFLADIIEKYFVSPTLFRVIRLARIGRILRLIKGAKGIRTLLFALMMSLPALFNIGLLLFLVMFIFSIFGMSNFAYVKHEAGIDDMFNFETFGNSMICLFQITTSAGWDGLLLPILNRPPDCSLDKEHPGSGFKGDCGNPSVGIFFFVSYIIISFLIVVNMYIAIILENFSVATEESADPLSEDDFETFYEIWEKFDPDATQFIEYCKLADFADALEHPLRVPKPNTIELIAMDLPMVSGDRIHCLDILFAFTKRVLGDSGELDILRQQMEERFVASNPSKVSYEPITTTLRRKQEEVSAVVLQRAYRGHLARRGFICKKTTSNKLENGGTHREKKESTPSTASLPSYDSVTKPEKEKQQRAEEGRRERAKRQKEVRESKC

As a reminder, the IC50 is the point on the concentration scale where inhibition reaches its midpoint.

One test has as its target hNaV1.6 (Homo sapiens, UniProt Q9UQD0). The test is described as follows: Automated whole-cell patch-clamp, hNaV1.6. Particulars: hNaV1.6/β1 in HEK293, QPatch-16; 50 ms pulse to −20 mV from −90 mV every 20 s; 5 min incubation, 22 °C, pH 7.4, 0.1% BSA; mean ± SEM, n = 4. A general note: The patch-clamp technique gives a direct electrical read-out from membranes.
A further test addresses hNaV1.2 (Homo sapiens, UniProt Q99250). The test is described as follows: Automated whole-cell patch-clamp, hNaV1.2. Conditions: hNaV1.2/β1 in HEK293, QPatch-16; 50 ms pulse to −20 mV from −90 mV every 20 s; 5 min incubation, 22 °C, pH 7.4, 0.1% BSA; mean ± SEM, n = 5.
A further test has as its target hNaV1.7 (Homo sapiens, UniProt Q15858). Kind of test: Automated whole-cell patch-clamp, hNaV1.7. Particulars: hNaV1.7/β1 in HEK293, QPatch-16; 50 ms pulse to −20 mV from −90 mV every 20 s; 5 min incubation, 22 °C, pH 7.4, 0.1% BSA; mean ± SEM, n = 4.
A further test addresses hNaV1.3 (Homo sapiens, UniProt Q9NY46). Kind of test: Automated whole-cell patch-clamp, hNaV1.3. Particulars: hNaV1.3/β1 in HEK293, QPatch-16; 50 ms pulse to −20 mV from −90 mV every 20 s; 5 min incubation, 22 °C, pH 7.4, 0.1% BSA; mean ± SEM, n = 3.
The next test concerns the target hNaV1.1 (Homo sapiens, UniProt P35498). Kind of test: Automated whole-cell patch-clamp, hNaV1.1. Conditions: hNaV1.1/β1 in HEK293, QPatch-16; 50 ms pulse to −20 mV from −90 mV every 20 s; 5 min incubation, 22 °C, pH 7.4, 0.1% BSA; mean ± SEM, n = 5.

On to `C[C@@H]1NC(=O)[C@H](Cc2c[nH]cn2)NC(=O)[C@H](CC(=O)O)NC(=O)[C@H](CCCNC(=N)N)NC(=O)[C@@H]2CSSC[C@H](NC(=O)CNC(=O)[C@@H](N)CCCNC(=N)N)C(=O)N[C@H]3CSSC[C@H](NC(=O)[C@H](CCCNC(=N)N)NC1=O)C(=O)N[C@H](C(N)=O)CSSC[C@H](NC(=O)CNC(=O)CNC(=O)[C@H](CCCNC(=N)N)NC(=O)CNC(=O)[C@H](CC(N)=O)NC3=O)C(=O)N[C@@H](CO)C(=O)N[C@@H](CO)C(=O)N[C@@H](CCCNC(=N)N)C(=O)N[C@@H](Cc1c[nH]c3ccccc13)C(=O)N2`, for which the IC50 on hNaV1.6 was 125 nM; at hNaV1.2, 364 nM; against hNaV1.7, 152 nM; at hNaV1.3, 89.4 nM; against hNaV1.1, 132 nM.
